The results in this text go back to US6316190.

The exact form of at least one protein or probe is not confirmed.

This series deals with HIV-1 nucleocapsid protein (NC), wild type (Human immunodeficiency virus 1) (UniProt P12493). The series can be described thus: SPR. To be noted: one NC per oligo, purified recombinant protein, label: biotin, single-stranded DNA, only the motif is given.

As for GTGTG, the binding result (affinity roughly equal to TGTGT) is “binds”.

Regarding TGTGT, under “affinity roughly equal to GTGTG”, the binding result was “binds”.
